PubChem BioAssay AID504761 | Drosophila RNAi Screening Center, 2011

Purpose: 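Insect host genes that dengue virus relies on to spread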 (primary screen)
Cell system: D.Mel-2 cells from Drosophila
Reagents: long dsRNA against Drosophila genes
Treatment: infection with dengue virus type 2; dose and infection time not stated
Measurement: 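Cells stained for dengue envelope protein and imaged; percent of infected cells per well on duplicate plates, ranked by infection, with stained nuclei counted for cell number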
Scale: infection score: higher = more virus-infected cells; cell count: higher = more cells in the well
Call rule: 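Low infection ranks in the two replicates (chance level up to 0.065) followed by a retest with a 1.5-fold or larger significant decrease, p below 0.05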
Calls: active = confirmed: knock-down lowers infection; inactive = not picked or not confirmed
The screen tested about 22,000 reagents; this is a random part of those with a known target gene and a result. In the full data, 116 (0.52%) are marked active. 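Calls depend on retest data that are not deposited; infection was ranked per plate without normalising between plates; the unit of the infection score is not given.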 Raw values are not corrected between plates. The record does not give: the amount of reagent, the time to read-out.

no.	Gene	amplicon	infection score, replicate 1	infection score, replicate 2	cell count, replicate 1	cell count, replicate 2	Outcome
1	CG31262	DRSC13216	4.27	2.87	5906	5689	inactive
2	Hs6st	DRSC14348	1.69	8.1	531	5125	inactive
3	Hs6st	DRSC15182	7.93	0.8	5675	5768	inactive
4	Hs6st	DRSC15581	9.91	7.32	6451	6663	inactive
5	Hs6st	DRSC21732	31.5	11.9	2191	969	inactive
6	RpL19	DRSC04649	15.6	3.34	1373	868	inactive
7	RpL19	DRSC28391	0.84	1.2	474	416	inactive
8	CG4872	DRSC19921	3.11	1.95	5951	6502	inactive
9	CG31776	DRSC00716	4.73	4.27	6786	6397	inactive
10	RpS2	DRSC03614	34.6	21	2276	2365	inactive
11	RpS2	DRSC26760	7.45	9.31	2174	2299	inactive
12	CG13285	DRSC09960	3.24	5.93	6017	5160	inactive
13	Pax	DRSC01703	8.36	3.05	5824	5648	inactive
14	Pax	DRSC02651	15.2	17.7	6515	6035	inactive
15	Pax	DRSC02652	6.19	17.2	5571	5955	inactive
16	CG18367	DRSC06545	1.25	14.8	6583	6123	inactive
17	CG18367	DRSC28507	7.84	8.36	5751	5480	inactive
18	ND-15	DRSC00311	6.12	7.93	5429	5158	inactive
19	Aasdh	DRSC03467	6.81	2.47	5860	6288	inactive
20	intr	DRSC14528	0.58	2.24	6009	6059	inactive
21	rgn	DRSC11609	9.88	7.77	5465	6941	inactive

Continued (3 carried over from the part before).
no.	Gene	amplicon	infection score, replicate 1	infection score, replicate 2	cell count, replicate 1	cell count, replicate 2	Outcome
19	Aasdh	DRSC03467	6.81	2.47	5860	6288	inactive
20	intr	DRSC14528	0.58	2.24	6009	6059	inactive
21	rgn	DRSC11609	9.88	7.77	5465	6941	inactive
22	CG31233	DRSC15888	9.58	9.79	3852	5119	inactive
23	mRpS33	DRSC14239	4.23	5.84	5701	5961	inactive
24	CG46441	DRSC15561	6.44	4.04	6161	6854	inactive
25	CG46441	DRSC24659	6.69	7.51	7130	6497	inactive
26	sNPF-R	DRSC10836	4.57	5.91	6214	6460	inactive
27	CG18420	DRSC01954	2.57	7.6	4633	5393	inactive
28	daw	DRSC00479	5.04	1.24	6009	6379	inactive
29	daw	DRSC24450	2.26	12.1	6472	6074	inactive
30	CG33012	DRSC06287	25.3	10.6	6061	6230	inactive
31	CG33012	DRSC06288	3.87	7.03	6357	6006	inactive
32	CG33159	DRSC08199	5.6	1.43	6389	6302	inactive
33	Rad60	DRSC15580	1.26	3.94	6434	6315	inactive
34	CG14110	DRSC10113	0.94	0.97	6067	6604	inactive
35	modSP	DRSC16726	15.3	7.41	6863	6964	inactive
36	modSP	DRSC16857	2.46	11.7	6669	3919	inactive
37	modSP	DRSC21489	3	10.7	5708	6192	inactive
38	fl(2)d	DRSC07620	4.62	15	6231	4849	inactive
39	Gbeta5	DRSC17754	3.38	2.44	6600	6874	inactive
